The test system of this test is B6C3F1 mice, Lewis lung carcinoma iv, survival T/C. The experiment in a line: NCI In Vivo Anticancer Drug Screen. Data for tumor model Lewis Lung Carcinoma (intravenous) in B6C3F1 mice. To be noted: endpoint: median survival time, schedule: Q01DX009 (ip), vehicle: saline, higher = longer survival. The protocol: The antitumor activity of compounds was measured in mice bearing transplantable tumors. Survival or tumor size were measured and the results are expressed as the measurement made in the treated group (T) divided by the measurement made in the vehicle treated control group (C). The tumor model used in this assay is Lewis Lung Carcinoma (intravenous) in B6C3F1 mice

Among the data in PubChem BioAssay AID276 (DTP/NCI, 2004) are T/C values, retold here.

Values joined by “and” are separate entries in the source; they are usually repeats but may differ in a detail not shown here. Equal values may be shown once. Inconclusive results and toxic doses are left out.

`O=P1(N(CCCl)CCCl)NC(SCCS(=O)(=O)O)CCO1` (centres undefined): the T/C reads like this: (dose: 12.5 mg/kg/injection) 101 % of control; (dose: 25.0 mg/kg/injection) 119 % of control; (dose: 50.0 mg/kg/injection) 173 % of control; (dose: 100.0 mg/kg/injection) 279 % of control and 294 % of control.
